Source: PubChem BioAssay AID1259414 (Drosophila RNAi Screening Center, 2018)

Aim: 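Host factors increasing or decreasing Wolbachia levels in cultured fly cells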 (primary screen)
Cell system: Drosophila JW18 cells infected with Wolbachia
Reagents: long dsRNA against Drosophila genes, 0.25 µg dsRNA per well of a 384-well plate
Duration: 5 days
Challenge: cells persistently infected with Wolbachia before knock-down; no added drug
Measured: 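Imaged fluorescence in situ signal for Wolbachia 23S rRNA per DAPI-counted host cell, given as a robust z-score within each plate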
Scale: Wolbachia per cell robust z: higher = more Wolbachia per host cell than the plate typical
Hit rule: 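Hit when robust z is 1.5 or more, or -1.5 or less, in at least two of three replicates; excludes dsRNAs with several or no targets, genes not expressed in JW18 and well A1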
The deposit covers about 24,000 reagents; shown is an unselected part of those that have a named target and a result. Of all reagents, about 1,210 (5%) were called active. 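Inactive calls also include excluded dsRNAs with several or no targets, genes unexpressed in JW18, and well A1, regardless of score.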 The numbers tell different reagents against one gene apart. Reagent sequences are not shown.

The first 5 entries, to show the layout:
gene | reagent | Wolbachia per cell robust z, rep 1 | Wolbachia per cell robust z, rep 2 | Wolbachia per cell robust z, rep 3 | Outcome
PpN58A (GeneID 37493) | 1 | 0.0506 | -1.82 | -0.827 | inactive
PpN58A (GeneID 37493) | 2 | -0.792 | 0.376 | 0.923 | inactive
PpN58A (GeneID 37493) | 3 | -1.06 | -0.111 | 0.914 | inactive
AttD (GeneID 42122) | 1 | -0.0733 | 0.716 | -0.315 | inactive
dib (GeneID 45282) | 1 | 0.11 | -1.42 | -0.583 | inactive

Main list, from the first entry:
gene | reagent | Wolbachia per cell robust z, rep 1 | Wolbachia per cell robust z, rep 2 | Wolbachia per cell robust z, rep 3 | Outcome
PpN58A (GeneID 37493) | 1 | 0.0506 | -1.82 | -0.827 | inactive
PpN58A (GeneID 37493) | 2 | -0.792 | 0.376 | 0.923 | inactive
PpN58A (GeneID 37493) | 3 | -1.06 | -0.111 | 0.914 | inactive
AttD (GeneID 42122) | 1 | -0.0733 | 0.716 | -0.315 | inactive
dib (GeneID 45282) | 1 | 0.11 | -1.42 | -0.583 | inactive
dib (GeneID 45282) | 2 | 0.142 | -0.299 | 0.164 | inactive
Tina-1 (GeneID 37989) | 1 | 0.415 | -1.4 | 0.0615 | inactive
Xbp1 (GeneID 44226) | 1 | -1.63 | 0.941 | 0.884 | inactive
Xbp1 (GeneID 44226) | 2 | -0.314 | -0.213 | -0.132 | inactive
COX6AL (GeneID 246451) | 1 | 0.767 | -0.0188 | -0.177 | inactive
CG7611 (GeneID 40386) | 1 | -1.21 | 0.0928 | 0.723 | inactive
CG10073 (GeneID 37225) | 1 | -1.24 | -0.608 | -0.261 | inactive
toy (GeneID 43833) | 1 | -0.878 | 0.0738 | 0.0184 | inactive
toy (GeneID 43833) | 2 | -1.89 | -0.392 | -0.928 | inactive
toy (GeneID 43833) | 3 | 0.37 | 1.41 | 0.572 | inactive
Ca-alpha1D (GeneID 34950) | 1 | -0.638 | 1.23 | 0.118 | inactive
CG13042 (GeneID 39798) | 1 | -2.24 | -1.69 | 0.777 | inactive
CG13042 (GeneID 39798) | 2 | 0.392 | 0.697 | -0.538 | inactive
COX5B (GeneID 33918) | 1 | 0.481 | 1.02 | 0.818 | inactive
GstD10 (GeneID 59240) | 1 | 0.587 | 0.478 | 0.466 | inactive
GstD10 (GeneID 59240) | 2 | 0.543 | -2.16 | -2.06 | active
Npc1a (GeneID 34358) | 1 | -0.257 | -3.27 | 0.337 | inactive
Unc-76 (GeneID 31179) | 1 | -0.238 | -0.165 | -0.163 | inactive
Unc-76 (GeneID 31179) | 2 | -0.411 | 0.403 | -5.05 | inactive
akirin (GeneID 38821) | 1 | 1.85 | 2.73 | 3.13 | active
akirin (GeneID 38821) | 2 | 0.44 | 1.76 | 1.61 | active
NAAT1 (GeneID 31457) | 1 | 1.29 | 0.0866 | 1.52 | inactive
NAAT1 (GeneID 31457) | 2 | 0.846 | 1.8 | 0.0887 | inactive
CG7492 (GeneID 38859) | 1 | -1.54 | 0.817 | 0.49 | inactive
SREBP (GeneID 40155) | 1 | 2.14 | 2.6 | 0.961 | active
CG34195 (GeneID 37018) | 1 | 0.349 | 0.591 | 0.51 | inactive
ver (GeneID 39432) | 1 | -0.0739 | -2.42 | -0.305 | inactive
ver (GeneID 39432) | 2 | 0.485 | -0.819 | 0.539 | inactive
Spn27A (GeneID 45815) | 1 | 0.772 | 0.393 | 0.104 | inactive
Pink1 (GeneID 31607) | 1 | -0.741 | 2.13 | -4.61 | inactive
CG2983 (GeneID 33485) | 1 | -0.496 | -0.00859 | -1.57 | inactive
Argp (GeneID 261628) | 1 | 1.03 | -0.241 | -0.0752 | inactive
NTPase (GeneID 33495) | 1 | -0.912 | 0.806 | 0.0774 | inactive
NTPase (GeneID 33495) | 2 | -3.12 | 0.318 | -0.444 | inactive
NTPase (GeneID 33495) | 3 | 0.604 | 0.941 | -1.74 | inactive
Polr2F (GeneID 48312) | 1 | 2.7 | 2.04 | 1.45 | active
Polr2F (GeneID 48312) | 2 | 0.744 | 1.64 | 1.31 | inactive
Peritrophin-15a (GeneID 50433) | 1 | 0.477 | -2.89 | -1.18 | inactive
Peritrophin-15a (GeneID 50433) | 2 | 0.213 | -0.903 | -0.366 | inactive
jv (GeneID 318008) | 1 | 0.914 | 0.737 | -3.24 | inactive
jv (GeneID 318008) | 2 | -0.668 | -0.453 | 0.696 | inactive
Cyp1 (GeneID 32595) | 1 | 0.23 | 0.0355 | -0.148 | inactive
Cyp1 (GeneID 32595) | 2 | -0.177 | 0.722 | 0.0639 | inactive
Rgl (GeneID 44115) | 1 | 0.139 | -0.729 | 0.632 | inactive
Acp29AB (GeneID 34162) | 1 | -0.471 | -1.11 | 0.618 | inactive
Acp29AB (GeneID 34162) | 2 | -0.187 | 0.214 | 0.179 | inactive
Yod1 (GeneID 38603) | 1 | -0.132 | 0.788 | 0.473 | inactive
Yod1 (GeneID 38603) | 2 | -1.93 | -0.62 | -0.439 | inactive
enok (GeneID 37859) | 1 | 0.425 | 1.96 | 1.02 | inactive
Rbpn-5 (GeneID 37395) | 1 | -5.48 | 0.243 | -4.53 | active
Rbpn-5 (GeneID 37395) | 2 | -0.85 | -1.04 | -1.04 | inactive
CG43106 (GeneID 12797866) | 1 | 0.013 | 0.998 | 0.785 | inactive
CG13365 (GeneID 31005) | 1 | 0.366 | 0.768 | 2.53 | inactive
CG13365 (GeneID 31005) | 2 | -0.0837 | -0.0947 | 1.64 | inactive
Mpcp2 (GeneID 39587) | 1 | -1.2 | 0.625 | -0.152 | inactive
Gos28 (GeneID 248102) | 1 | -3.41 | 1.16 | -4.02 | active
Gos28 (GeneID 248102) | 2 | 0.321 | -2.46 | -1.49 | inactive
robo1 (GeneID 37603) | 1 | -6.19 | -0.469 | -0.973 | inactive
lncRNA:CR42657 (GeneID 19835852) | 1 | -0.513 | -0.253 | 0.313 | inactive
ND-MLRQ (GeneID 317928) | 1 | -1.11 | -0.719 | -0.0467 | inactive
Edg78E (GeneID 40354) | 1 | -0.0106 | 0.56 | 0.72 | inactive
Edg78E (GeneID 40354) | 2 | -0.0022 | -0.125 | -0.0498 | inactive
Lrch (GeneID 35041) | 1 | -0.929 | -3.29 | 0.0498 | inactive
Lrch (GeneID 35041) | 2 | -0.237 | 1.09 | 1.02 | inactive
CG5510 (GeneID 42872) | 1 | 0.977 | 0.572 | 0.437 | inactive
CG13460 (GeneID 39638) | 1 | 0.32 | -0.588 | 0.467 | inactive
CG42556 (GeneID 8674031) | 1 | 0.757 | -0.582 | 0.732 | inactive
CG14183 (GeneID 40192) | 1 | 0.763 | 0.684 | -0.579 | inactive
Egfrap (GeneID 3885637) | 1 | -0.844 | -0.128 | -0.411 | inactive
Egfrap (GeneID 3885637) | 2 | -0.472 | 0.945 | -0.365 | inactive
Egfrap (GeneID 3885637) | 3 | -0.12 | 0.174 | 0.661 | inactive
Flad1 (GeneID 32240) | 1 | 0.278 | -2.37 | 0.421 | inactive
CG17883 (GeneID 3355139) | 1 | -0.315 | -0.959 | -0.699 | inactive
CG13970 (GeneID 2768911) | 1 | 0.611 | -5.21 | 0.836 | inactive
CG13970 (GeneID 2768911) | 2 | -0.681 | -3.15 | 0.299 | inactive
CG32816 (GeneID 318225) | 1 | 1.52 | 0.261 | 0.692 | inactive
bru1 (GeneID 34648) | 1 | 0.88 | 0.518 | 0.586 | inactive
bru1 (GeneID 34648) | 2 | 0.278 | 1.1 | -0.26 | inactive
bru1 (GeneID 34648) | 3 | 0.623 | 0.648 | 0.551 | inactive
bru1 (GeneID 34648) | 4 | 0.307 | 0.58 | 0.925 | inactive
bru1 (GeneID 34648) | 5 | 1.96 | 1.49 | 0.0776 | inactive
CG4914 (GeneID 39597) | 1 | -0.274 | 0.137 | -0.305 | inactive
